Data published in US20240092860.

What was measured:
[1] = molecular target: T1, recombinant cynomolgus CD38 protein (Sino Biological), cynomolgus monkey, Q5VAN0 44-301
T1 sequence: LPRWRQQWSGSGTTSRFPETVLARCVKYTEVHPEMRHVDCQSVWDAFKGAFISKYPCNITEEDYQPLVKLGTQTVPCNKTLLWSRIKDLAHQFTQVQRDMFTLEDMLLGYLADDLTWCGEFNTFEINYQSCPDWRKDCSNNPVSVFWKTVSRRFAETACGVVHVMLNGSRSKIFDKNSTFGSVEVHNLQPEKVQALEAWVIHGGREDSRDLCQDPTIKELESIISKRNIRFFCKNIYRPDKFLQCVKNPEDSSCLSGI

[2] = molecular target: T2, rhesus CD38 on BLCL-C162 cells, rhesus, Q5VAN0 1-301; assay: cell-based or functional assay
T2 sequence: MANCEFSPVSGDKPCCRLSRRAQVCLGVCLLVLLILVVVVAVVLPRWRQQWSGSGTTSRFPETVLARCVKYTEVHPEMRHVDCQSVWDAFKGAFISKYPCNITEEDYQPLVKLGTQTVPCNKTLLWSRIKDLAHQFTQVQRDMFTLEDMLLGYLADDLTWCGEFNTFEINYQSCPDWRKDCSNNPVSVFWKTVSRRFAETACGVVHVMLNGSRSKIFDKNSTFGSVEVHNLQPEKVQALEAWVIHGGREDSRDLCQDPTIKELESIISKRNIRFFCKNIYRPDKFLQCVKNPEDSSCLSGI

[3] = molecular target: human CD38 on the surface of CD38 positive human cells (MOLP-8, H929, ST486, Daudi, ANBL6, RPMI8226,, Homo sapiens, P28907 1-300); assay: cell-based or functional assay
[4] = molecular target: recombinant human CD38 protein (Sino Biological), human, P28907 43-300; assay: ELISA, plate-coated recombinant human CD38, detection by anti-toxin antibody

Substance	Kd [1] [µg/mL]	Cytotoxicity CD50, rhesus BLCL-C162 cells [2] [ng/mL]	Cytotoxicity CD50, Daudi cells [3] [ng/mL]	Cytotoxicity CD50, H929 cells [3] [ng/mL]	Cytotoxicity CD50, MOLP-8 cells [3] [ng/mL]	Cytotoxicity CD50, ST486 cells [3] [ng/mL]	Kd [4] [µg/mL]
CD38-binding protein #2 (SEQ ID NO:77)	0.644	1130					
CD38-binding protein #3 (SEQ ID NO:78)	0.247		0.8	0.2	2.2	< 0.1	0.0133
CD38-binding protein #1 (SEQ ID NO:76)		4620					
CD38-binding protein #4 (SEQ ID NO:79)	0.67	26					
